# Patent publication US9073966B2, “Inhibition of sweat malodor” (Firmenich SA, priority 2005, dated 2015)
# Entries after “also recorded” stand apart in the source; their conditions may differ.
# Tested on: St. haemolyticus, C. xerosis and St. epidermidis
# Test: Bioconversion of synthesized precursors into (R/S)-3-methyl-3-sulfanyl-hexane-1-ol by bacterial strains
# Format: cell-based
# Details: bacteria incubated with precursor at 35-37° C., up to 18 hours; GC-AED
smiles,measurement,value
"CCCC(C)(CCO)SC[C@H](N)C(=O)NCC(=O)O (stereo partly drawn) [Compound 9, (2R)—S-[1-(2-hydroxyethyl)-1-methylbutyl]-Cys-Gly]",conversion of precursor into malodorous compound 1 (chemical yield of 1),always a better chemical yield compared to 11; also recorded: more efficiently converted into the malodorous compound 1; also recorded: efficiently converted by all strains
